Measured values from several laboratories, pooled; numbers as filed in NIAID ChemDB.

All rows: growth or infection tests; species: Mycobacterium tuberculosis

Conditions beyond the fields shown may differ between rows. MIC50, MIC90 and the like: level of inhibition, or share of isolates inhibited. For "inactive" no cut-off is given. MIC bound comes from a single tested concentration. Inhibition is in % at the dose shown (toxicity tests: loss of growth or viability). Blank or dashed fields: not listed here.

smiles | cells | strain | changes | conditions | dose | method | read-out | value
FC(F)(F)c1ccc(N2CCC3(CCN(c4ccc(Nc5ncnc6ccccc56)cc4)CC3)CC2)cc1 | - | H37Rv | - | - | - | luminescence | MIC50 | >50 µM
COc1ccccc1Sc1ncccn1 | - | H37Ra | - | - | - | - | MIC | >12.8 µg/mL
O=C(O)c1cc2oc3ccc([N+](=O)[O-])cc3c(=O)c2cc1[N+](=O)[O-] | - | H37Rv | - | - | 32 µg/mL | - | inhibition | inactive
CS(=O)(=O)O.Cc1c(O)/c(=C\O)c2nc3c(=O)ccc(C(=O)NCCN(C)C)c3[nH]c2c1=O | - | H37Rv | - | - | - | BACTEC | MIC | ≥128 µg/mL
Clc1ccc(Oc2cccc(CNc3ncnc4ccccc34)c2)cc1 | - | H37Rv | - | - | - | luminescence | MIC50 | >50 µM
CCCCS(=O)(=O)Nc1ccc2[nH]c(C(=O)N3CCN(C)CC3)c(C)c2c1 | - | H37Rv | - | - | - | resazurin | MIC90 | 50 µM
COC(=O)[C@@H]1[C@H](O)[C@H](C)C(O)[C@H](C)/C=C\C=C(/C)C(=O)Nc2c(C)c(OC(C)=O)c3c(c2O)C(=O)C(C)=C2OCOC(=C23)/C(C)=C/[C@@](C)(O)[C@H](O)[C@@H](C)[C@H]1OC(C)=O | - | H37Rv | - | - | - | BACTEC | MIC | 6.25 µg/mL
O=C(O)c1c([N+](=O)[O-])ccc2oc3ccc([N+](=O)[O-])cc3c(=O)c12 | - | H37Rv | - | - | 32 µg/mL | - | inhibition | inactive
CC(=O)NC1=C(C)C(=O)c2c(nc3n2CCC3OC(=O)c2ccccc2)C1=O | - | H37Rv | - | - | - | BACTEC | MIC bound | >12.5 µg/mL
CCCCCCCCCN1C(=O)CC(C)C1=O | - | H37Rv | - | - | - | - | MIC | ≤20 µg/mL
CCCCS(=O)(=O)Nc1ccc2[nH]c(C(=O)NCc3ccc(F)cc3F)c(C)c2c1 | - | H37Rv | - | - | - | resazurin | MIC90 | >100 µM
CCCCCCCCCN1C(=O)CC(C)(SCC(N)C(=O)O)C1=O | - | Clinical isolate (isoniazid-resistant) | - | - | - | - | MIC | ≤20 µg/mL
CN(C(=O)c1ccco1)C(=S)N1CCN(c2ccccn2)CC1 | - | H37Rv | - | - | - | BACTEC | MIC bound | >12.5 µg/mL
FC(F)(F)Oc1ccc(Nc2ncnc3ccsc23)cc1 | - | H37Rv | - | - | - | luminescence | MIC50 | >50 µM
NC(=O)c1cccc2c(=O)c3ccccc3oc12 | - | H37Rv | - | - | 8 µg/mL | - | inhibition | inactive
O=C(/C=C/c1ccccc1)n1ccnc1 | - | H37Rv | - | - | 6.25 µg/mL | resazurin | inhibition | -10%
CO[C@H]1/C=C/O[C@@]2(C)Oc3c(C)c(O)c4c(=O)c(c5oc6cc(N7CCN(CC(C)C)CC7)cc(=O)c6nc5c4c3=C2O)NC(=O)/C(C)=C\C=C\[C@H](C)[C@H](O)[C@@H](C)[C@@H](O)[C@@H](C)[C@H](OC(C)=O)[C@@H]1C | - | Kurata | - | inside macrophages | 5 µg/mL | - | inhibition | 87.6%
CC(C)Cn1c(-c2ccc(Cl)cc2Cl)cs/c1=N\NC(=O)COc1cnccn1 | - | H37Rv | - | - | - | - | MIC | 15 µg/mL
O=C(c1ccncc1)N1N=C(c2cccs2)CC1(O)C(F)(F)F | - | RGH101 | - | - | - | - | MIC | >293 µM
CC(C1=C(O)c2ccccc2C(=O)C1=O)C1=C(O)c2ccccc2C(=O)C1=O | - | H37Rv | - | - | - | BACTEC | MIC | ≥12.8 µg/mL
NNC(=O)c1ccncc1 | - | H37Rv (drug-susceptible) | - | - | - | - | MIC | 1 µM
CC1COc2c(N3CCN(C(N)=NC#N)CC3)c(F)cc3c(=O)c(C(=O)O)cn1c23 | - | ATCC 35837 | - | - | - | broth dilution | MIC | 0.625 µg/mL
CO[C@H]1/C=C/O[C@@]2(C)Oc3c(C)c(O)c4c(O)c(c(/C=N/N5CCN(C)CC5)c(O)c4c3C2=O)NC(=O)/C(C)=C\C=C\[C@H](C)[C@H](O)[C@@H](C)[C@@H](O)[C@@H](C)[C@H](OC(C)=O)[C@@H]1C | - | FJ05060 | Clinically resistant strain | - | - | resazurin | MIC | 0.5 µg/mL
NC(=O)c1cnccn1 | - | Isolate 97-854 | - | - | - | - | MIC | 100 µg/mL
Nc1nccnc1C(=O)NO | - | H37Rv | - | - | 12.5 µg/mL | BACTEC | inhibition | 21%
Nc1cc(O)c(C(=O)O)cc1F | - | - | - | - | - | - | MIC | <12.5 µg/mL
CCCCS(=O)(=O)Nc1ccc2[nH]c(C(=O)NCCc3ccccc3)c(C)c2c1 | - | H37Rv | - | - | - | resazurin | MIC90 | >100 µM
CC(C)n1c(-c2ccc(Br)cc2)cs/c1=N\NC(=O)COc1cnccn1 | - | H37Rv | - | - | - | - | MIC | 15 µg/mL
NC1=NC(Cn2nc(-c3ccccc3)c3ccccc3c2=O)=NNC(=O)N1 | - | H37Rv | - | - | - | BACTEC | MIC bound | >12.5 µg/mL
CC(=O)Nc1ccc(/C=N/NC(N)=S)cc1F | - | H37Rv | - | - | - | - | MIC | ≤0.1 µg/mL
Cc1cc(C(c2cc(C)c(O)c(C(=O)O)c2)c2cc(C)c(O)c(C(=O)O)c2)cc(C(=O)O)c1O | - | H37Rv | - | - | 12.5 µg/mL | BACTEC | inhibition | 0%
Cc1ccc(C)c(Sc2ncccn2)c1 | - | H37Ra | - | - | - | - | MIC | >12.8 µg/mL
Fc1ccc2c(Nc3ccc(Oc4cccc(C(F)(F)F)c4)cc3)ncnc2c1 | - | H37Rv | - | - | - | luminescence | MIC50 | >20 µM
O=C(N/N=C/C(O)C(O)C(O)C(O)CO)C(=O)N/N=C/C(O)C(O)C(O)C(O)CO | - | H37Rv | - | - | - | BACTEC | MIC bound | >12.5 µg/mL
c1ccc(CCNc2ncnc3ccccc23)cc1 | - | H37Rv | - | - | - | luminescence | MIC50 | >10 µM
O=c1nc(SCc2ccccn2)c2[nH]cnc2[nH]1 | - | H37Rv | - | - | - | - | MIC90 | >6.25 µg/mL
Fc1ccc2c(Nc3ccc(NCCN4CCOCC4)cc3)ncnc2c1 | - | H37Rv | - | - | - | luminescence | MIC50 | >10 µM
CCCCCCCCCCNC1CC(=O)N(CCCCCCCCCC)C1=O | - | H37Rv | - | - | - | - | MIC | ≤20 µg/mL
CCCCS(=O)(=O)Nc1ccc2[nH]c(C(=O)OCC)c(C)c2c1 | - | DRM167 32x11 | G240S DG167-resistant | - | - | resazurin | MIC90 | >100 µM
O=C(N/N=C/c1ccccc1Cl)c1cccnc1 | - | H37Rv | - | - | - | BACTEC | MIC bound | >12.5 µg/mL
Fc1ccc2c(Nc3ccc(-c4ccc(C(F)(F)F)cc4)cc3)ncnc2c1 | - | H37Rv | - | - | - | luminescence | MIC50 | >10 µM
O=C(c1ccncc1)N1N=C(c2ccco2)CC1(O)C(Cl)(Cl)Cl | - | H37Rv | - | - | - | - | MIC | >268 µM
COc1cccc(Sc2ccncc2)c1 | - | H37Rv | - | - | 6.25 µg/mL | - | inhibition | 12%
COc1c(N2CCNC(C)C2)c(F)cc2c(=O)c(C(=O)O)cn(C3CC3)c12 | - | 158 strains | - | - | - | - | MIC | >16 µg/mL
FC(F)(F)c1ccc2c(c1)N(CCCN1CCN(CCC3OCCCO3)CC1)c1ccccc1S2 | - | H37Rv | - | - | - | - | MIC | 12.5 µg/mL
CCCCCCCCCN1C(=O)CC(NCCCCCCCC)C1=O | - | H37Ra | - | - | - | - | MIC | ≤20 µg/mL
COc1ccc(Sc2ccncc2)cc1OC | - | H37Rv | - | - | - | - | MIC90 | >6.25 µg/mL
CCCCCCCCS(=O)(=O)CC(N)=O | - | TBL54 EP066 | - | - | - | - | MIC | ≤6.25 µg/mL
NNC(=O)C(=O)Nc1ccc(F)cc1 | VERO | H37Rv | - | - | - | BACTEC | MIC | 3.13 µg/mL
CC1(C)C=Cc2c(ccc(C(=O)/C=C/c3ccc(O)cc3)c2O)O1 | - | MTCS1 | - | - | - | resazurin | MIC | 39.06 µg/mL
Fc1ccc2c(Nc3ccc(Oc4ccc(C(F)(F)F)cc4)cc3)ncnc2c1 | - | H37Rv | - | - | - | luminescence | MIC50 | >20 µM
Clc1nc(Sc2ccccn2)c2[nH]cnc2n1 | - | H37Rv | - | - | - | - | MIC90 | >6.25 µg/mL
CC(C)=CCc1cc(/C=C/C(=O)c2ccc(O)c(CC=C(C)C)c2O)ccc1O | - | MTCS1 | - | - | - | resazurin | MIC | >39.06 µg/mL
Cc1cc(N)cc2c(=O)c3ccccc3oc12 | - | H37Rv | - | - | 8 µg/mL | - | inhibition | inactive
O=C(c1ccncc1)N1N=C(c2ccccc2)CC1(O)C(F)(F)F | - | RGH102 | - | - | - | - | MIC | >298.5 µM
O=C1C=CC(=O)N1c1ccc(N2CCCCC2)cc1 | - | H37Rv | - | - | - | - | MIC | ≤20 µg/mL
NNC(=O)c1ccccn1 | - | H37Rv (drug-susceptible) | - | - | - | - | MIC | 64 µM
CCCCCCCCCN1C(=O)CC(SCCNC(=O)c2ccc([N+](=O)[O-])cc2)C1=O | - | Clinical isolate (isoniazid-resistant) | - | - | - | - | MIC | ≤20 µg/mL
CC(C)=CCC/C(C)=C/CNc1ncnc2ccoc12 | - | H37Rv | - | - | - | luminescence | MIC50 | >20 µM
COc1ccc(C(N)=S)cc1 | - | H37Rv | - | - | - | - | MIC | 64 µM
Fc1ccc2c(Nc3ccc(Oc4ccc(Cl)c(Cl)c4)cc3)ncnc2c1 | - | H37Rv | - | - | - | luminescence | MIC50 | >20 µM
COC(=O)c1ccc2oc3c(C(=O)OC)cc([N+](=O)[O-])cc3c(=O)c2c1 | - | H37Rv | - | - | 16 µg/mL | - | inhibition | inactive
FC(F)(F)c1ccc(CNc2ncnc3ccccc23)cc1 | - | H37Rv | - | - | - | luminescence | MIC50 | >20 µM
NNC(=O)c1ccncc1 | - | NHN113 | - | - | - | - | MIC | 5 µg/mL
COc1ccc(CSc2ccncc2)cc1 | - | H37Ra | - | - | - | - | MIC | >12.8 µg/mL
CC(C)n1c(-c2ccc(F)cc2)cs/c1=N\NC(=O)COc1cnccn1 | - | H37Rv | - | - | - | - | MIC | 21 µg/mL
CC(C)=CCC/C(C)=C/Cc1cc2ccc(=O)oc2cc1O | - | H37Rv | - | - | - | BACTEC | MIC bound | >6.25 µg/mL
CC(C)=CCC/C(C)=C/CNc1ncnc2cc(F)ccc12 | - | H37Rv | - | - | - | luminescence | MIC50 | >20 µM
CCOc1ccc(-n2c(-c3ccc(Br)cc3)cs/c2=N\NC(=O)COc2cnccn2)cc1 | - | H37Rv | - | - | - | - | MIC | 17 µg/mL
N=C(N)c1ccc2oc(/C=C/c3ccc(-c4cc5cc(C(=N)N)ccc5o4)cc3)cc2c1 | - | H37Rv | - | - | 12.5 µg/mL | BACTEC | inhibition | -6%
Cc1cc(C)c2oc3ccccc3c(=O)c2c1[N+](=O)[O-] | - | H37Rv | - | - | 8 µg/mL | - | inhibition | inactive
CCCCS(=O)(=O)Nc1ccc2[nH]c(C(=O)NCC(C)C)c(C)c2c1 | - | H37Rv | - | - | - | resazurin | MIC90 | 12.5 µM
Clc1ccc(/C=C/c2nc(Cl)c(-c3ccc(Cl)cc3)c(Cl)n2)cc1 | - | H37Rv | - | - | - | resazurin | MIC bound | >6.25 µg/mL
O=C(c1ccncc1)N1N=CCC1(O)C(F)(F)F | - | RGH103 | - | - | - | - | MIC | 48 µM
Nc1ccc(C(=O)O)c(O)c1 | - | 7800 | - | - | 3.12 µM | - | inhibition | 100%
FC(F)(F)c1ccc(CCNc2ncnc3ccsc23)cc1 | - | H37Rv | - | - | - | luminescence | MIC50 | >50 µM
O=C1C2C3CCC(O3)C2C(=O)N1SC(Cl)(Cl)Cl | - | H37Rv | - | - | 12.5 µg/mL | BACTEC | inhibition | 95%
Clc1ccc(CCNc2ncnc3ccccc23)cc1 | - | H37Rv | - | - | - | luminescence | MIC50 | >10 µM
Clc1nc(Sc2ccccc2Cl)c2[nH]cnc2n1 | - | H37Rv | - | - | 6.25 µg/mL | - | inhibition | 0%
CCCCCCCCCN1C(=O)C=C(C)C1=O | - | H37Ra | - | - | - | - | MIC | ≤20 µg/mL
COC(=O)CC[C@@H](C)[C@H]1CC[C@@]2(C)[C@@H]3C(=O)C[C@H]4C(C)(C)[C@@H](OC(C)=O)CC[C@]4(C)[C@H]3C(=O)C[C@]12C | - | H37Rv | - | - | - | BACTEC | MIC | ≥128 µg/mL
Cc1ccc2oc3ccccc3c(=O)c2c1 | - | H37Rv | - | - | 2 µg/mL | - | inhibition | inactive
Cc1ccc(-n2cc(-c3ccc(Cl)cc3)c(C#N)c2N)cc1 | - | H37Rv | - | - | 12.5 µg/mL | BACTEC | inhibition | 98%
CCCCCCCCCN1C(=O)CC(SCCNC(=O)C2CC2)C1=O | - | Clinical isolate (isoniazid-resistant) | - | - | - | - | MIC | ≤20 µg/mL
Cc1c(C(=O)C/C(=N\NC(=O)CC#N)C(N)=O)[n+](=O)c2ccccc2n1[O-] | - | H37Rv | - | - | 12.5 µg/mL | BACTEC | inhibition | 8%
FC(F)(F)Oc1ccc(Oc2ccc(Nc3ncnc4ccsc34)cc2)cc1 | - | H37Rv | - | - | - | luminescence | MIC50 | >20 µM
NC(=S)c1ccc([N+](=O)[O-])cc1 | - | H37Rv (INH-resistant) | - | - | - | - | MIC | 1024 µM
CCCCCCCCNC1CC(=O)N(CCCCCCCC)C1=O | - | H37Rv | - | - | - | - | MIC | ≤20 µg/mL
O=C/C=C/c1ccccc1 | - | H37Ra | - | - | - | absorbance | MIC | 256 µg/mL
O=S(=O)(c1ccc(OC(F)(F)F)cc1)C1CCN(c2ccc(Nc3ncnc4ccccc34)cc2)CC1 | - | H37Rv | - | - | - | luminescence | MIC50 | >50 µM